Tags and fusion partners may be left off the protein sequences shown.

The data set addresses T1, Tn5 transposase (UniProt Q46731).
T1 sequence (limits assumed): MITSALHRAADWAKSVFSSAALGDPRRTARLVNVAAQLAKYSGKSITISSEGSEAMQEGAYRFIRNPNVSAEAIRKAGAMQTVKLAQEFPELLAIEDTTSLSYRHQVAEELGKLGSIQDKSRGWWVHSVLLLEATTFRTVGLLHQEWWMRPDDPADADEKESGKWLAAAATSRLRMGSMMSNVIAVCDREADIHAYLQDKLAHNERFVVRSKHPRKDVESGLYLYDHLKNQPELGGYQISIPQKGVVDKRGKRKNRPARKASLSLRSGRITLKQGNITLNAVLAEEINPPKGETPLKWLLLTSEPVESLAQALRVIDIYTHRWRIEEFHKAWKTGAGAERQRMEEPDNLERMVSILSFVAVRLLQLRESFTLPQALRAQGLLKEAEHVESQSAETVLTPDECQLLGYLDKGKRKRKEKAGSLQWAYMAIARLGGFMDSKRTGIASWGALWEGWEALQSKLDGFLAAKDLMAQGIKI
The data set is described as follows: activity assay. As to conditions: Tn5 added to MuA transposomes 1 h room temp; transposition into pUC19 confirmed by sequencing with MuA-Tn5 TSC; 25 mM Tris pH 8.0, 10 mM MgCl2, 110 mM NaCl; purified recombinant protein.

For “GATCTGAAGCGGCGCACGAAAAACGCGAAAGCGTTTCACGATAAATGCGAAAACAAAACCATCGCCGAGATTTGCCCGTAGATTTCAGTGCCGGTTAACTCCTCGAGCAATTCCGCGCGTTCTTTGGGTTTGGCATTCAGGAAGGCAGCAAATTAGATGTGTATAAGAGACAG (double strand)”, the “activity on this sequence” value is on record as “active”.

(Values after US20190169602.)
